The values that follow come from publication PMC11944577.

The chains behind the UniProt entries cited, without tags or fusion partners. Where a name states a change or a piece, a line headed by the entry shows the natural chain unless it says otherwise.
UniProt Q9RDT5: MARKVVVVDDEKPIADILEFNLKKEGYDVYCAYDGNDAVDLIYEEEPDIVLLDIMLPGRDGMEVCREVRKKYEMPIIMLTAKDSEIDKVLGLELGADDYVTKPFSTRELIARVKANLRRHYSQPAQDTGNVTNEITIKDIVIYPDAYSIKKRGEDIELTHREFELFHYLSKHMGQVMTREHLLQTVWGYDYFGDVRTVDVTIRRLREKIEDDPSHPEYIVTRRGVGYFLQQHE

For some of these results: Tags and fusion partners may be left off the protein sequences shown. For some of these results: For at least one entry, the source does not settle the construct or the ends of the probe.

Data set [1] has as its target WalR (phosphorylated by WalK + ATP) (UniProt Q9RDT5). In words: EMSA. The conditions noted are these: WalK 1 uM, 5 mM ATP, recombinant protein, protein details: His, probe letters rebuilt from the primers and the genome. (In general: Mobility shift assays separate free from complexed probe on a gel.)
The target of data set [2] is T1, MgrA (Staphylococcus aureus XN108) (UniProt P0C1S0).
T1 sequence (looked up): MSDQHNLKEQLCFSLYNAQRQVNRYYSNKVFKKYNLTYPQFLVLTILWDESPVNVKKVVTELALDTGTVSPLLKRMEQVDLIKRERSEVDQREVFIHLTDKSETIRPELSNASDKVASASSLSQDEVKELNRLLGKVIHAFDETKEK
In words: EMSA. The note with it: MgrA 0-4 uM, dose-dependent; recombinant protein; residues 1-147; label: biotin (cap-F-biotin primer); probe letters rebuilt from the primers and the genome.

Data set [3] deals with WalR (phosphorylated by WalK + ATP) (UniProt Q9RDT5). As to the kind of experiment: competition with a labelled probe. The conditions noted are these: 300-fold unlabelled vs biotin PmgrA, recombinant protein, protein details: His, probe letters rebuilt from the primers and the genome.

Turning to “AACGACTAGTTAAGAAAAATTGGAAAATAAATGCTTTTAGCATGTTTTAATATAACTAGATCACAGAGATGTGATGGAAAATAGTTGATGAGTTGTTTAATTTTAAGAATTTTTATCTTAATTAAGGAAGGAGTGATTTCAATGGCACAAGATATCATTTCAACAATCGGTGACTTAGTAAAATGGATTATCGACACAGTGAACAAATTCACTAAAAAATAA (double strand) [Pagr probe]”, the binding result in data set [1] (positive control, label: biotin (agr-F-biotin primer)) was “binds”.

In the case of “TTCTAATGTACTTTCCATTATTTACCTCCCTTAAAAATTTTCATTAAAATTGGTATTATATATATAGTATTTACATATTACATATCGTTTAAACAATTAATTACTTTTAAACCGAATTATTTTCGCCTTTTTATTTATATGAAATTAAAAATAATTATACTCTAAAGTAGTAATATTTTGTGAAAAGTGTACCAATCTTAATACTTTCTTTATTAAAAAAATTGATTGTCTAGGTTGTATCTCTCTGAAGATTTGGCAATAAAGAAAAGCCGATAACCGTATAATGATTATCGACTTTAAGTTTATGTGGCATTTTTTACTTTTGTAATTTCAGGTGAGTTAGATGAT (double strand) [Pcap probe]”, the binding result in data set [2] is “binds”.

With “TTTATATTCTCTTTTCTATTACAGTTATTTTTAAAAATGATAACATATATATTAAATTATCTTTTTGCTTGATTTAATCAAAAATATCTTCTAAACTTTAAACATACTTTAATTTTAGCATGGCATTGAATCAAAGAAAGTTGTGAATTAATAAACAATCAACTTTTTAATGATTACCAATCCGAAAAGAGAAAAAAACGGATAGTATGTCTGGAGGAGAACTTTA (double strand) [PmgrA probe]”, in data set [1] (WalR 0-8 uM, dose-dependent, label: biotin (mgrA-F-biotin primer)), the binding result is given as “binds”.

On to “TTTATATTCTCTTTTCTATTACAGTTATTTTTAAAAATGATAACATATATATTAAATTATCTTTTTGCTTGATTTAATCAAAAATATCTTCTAAACTTTAAACATACTTTAATTTTAGCATGGCATTGAATCAAAGAAAGTTGTGAATTAATAAACAATCAACTTTTTAATGATTACCAATCCGAAAAGAGAAAAAAACGGATAGTATGTCTGGAGGAGAACTTTA (double strand) [PmgrA unlabelled competitor]”, for which the binding result in data set [3] is recorded as “binds”.
